Compound potency records, mixed from different reports. Data source: NIAID ChemDB in PubChem.

Shared fields: whole-cell or culture tests

Lines come from different laboratories, so protocols vary. a–b is a range or a potency band. ECn: concentration that inhibits the pathogen or its effect by n%. Blank or dashed fields: not listed here.

smiles,endpoint,strain,species,cell line,result
O=c1[nH]cnc2c1ncn2[C@H]1CC[C@@H](CO)O1,EC50,,Vaccinia virus,HFF,>423 µM
Nc1ccn(C[C@@H](CO)OCP(=O)(O)O)c(=O)n1,EC50,,Monkeypox virus,3T3,8 µM
NC(=O)c1ncn([C@@H]2O[C@H](CO)[C@@H](O)[C@H]2O)n1,EC50,Zaire strain wild-type,Monkeypox virus,VERO 76,96 µM
Cn1c(O)c(N=NC(N)=S)c2ccccc21,EC50,,Variola virus,BSC,258 µM
CCCCCCCCCCCCCCCCOCCCOP1(=O)CO[C@@H](Cn2ccc(N)nc2=O)CO1,EC50,Elstree,Vaccinia virus,HFF,3.8 µM
NC(=O)c1csc([C@@H]2O[C@H](CO)[C@@H](O)[C@H]2O)n1,EC50,Asibi,Yellow fever virus,LLC-MK2,0.08 µg/mL
Nc1ccn(C[C@H]2COP(=O)(O)CO2)c(=O)n1,EC50,Elstree,Vaccinia virus,HFF,41.6 µM
O=c1cnn([C@@H]2O[C@H](CO)[C@@H](O)[C@H]2O)c(=O)[nH]1,EC90,Nakayama,Japanese encephalitis virus,VERO,0.8 µg/mL
NC(=O)c1csc([C@@H]2O[C@H](CO)[C@@H](O)[C@H]2O)n1,EC50,Nakayama,Japanese encephalitis virus,VERO,73 µg/mL
Nc1nc(=O)c2ncn(CCOCP(=O)(O)O)c2c(=O)[nH]1,EC50,,Japanese encephalitis virus,HepG2.2.15,>500 µM
Nc1ccn(C[C@H]2COP(=O)(O)CO2)c(=O)n1,EC50,,Camelpox virus,VERO 76,46 µM
Nc1nccc2c1ncn2[C@@H]1C[C@H](CO)[C@@H](O)[C@H]1O,EC50,Zaire strain wild-type,Monkeypox virus,VERO 76,4.5 µM
NC(=O)c1nc(F)c[nH]c1=O,EC50,H2N2 Takathuki/4/65,Influenza A virus,MDCK,0.048 µg/mL
Nc1ccn([C@@H]2CS[C@H](CO)O2)c(=O)n1,EC50,,Vaccinia virus,VERO,>436 µM
Nc1nc(=O)c2ncn([C@@H]3C[C@H](O)[C@@H](CO)O3)c2c(=O)[nH]1,EC50,,Japanese encephalitis virus,HepG2.2.15,10–15 µM
CCCCCCCCCCCCCCCCOCCCOP(=O)(O)CO[C@H](CO)Cn1ccc(N)nc1=O,EC50,Elstree,Vaccinia virus,HFF,1.2 µM
CCCCCCCCCCCCNc1nc(=O)c2ncn([C@@H]3C[C@H](O)[C@@H](CO)O3)c2c(=O)[nH]1,EC50,,Japanese encephalitis virus,HepG2.2.15,300 µM
Nc1ccn(C[C@@H](CO)OCP(=O)(O)O)c(=O)n1,EC50,Somalia wild type,Camelpox virus,VERO 76,2.3 µM
Nc1nc(=O)c2[nH]cnc2c(=O)[nH]1,EC50,,Japanese encephalitis virus,HepG2.2.15,>500 µM
Cc1cn([C@H]2C[C@H](N=[N+]=[N-])[C@@H](CO)O2)c(=O)[nH]c1=O,EC50,,Vaccinia virus,HFF,>374 µM
Nc1ccn(C[C@@H](CO)OCP(=O)(O)O)c(=O)n1,EC50,,Camelpox virus,VERO,22 µM